Measured values from several laboratories, pooled; numbers as filed in NIAID ChemDB.

All rows: toxicity to cultured cells; cell line: Jurkat cells; read-out: CC50

An empty or dashed field is not shown. Lines come from different laboratories, so protocols vary. CCn: concentration that lowers growth or viability of the cells by n%.

structure | read by | result
COc1cc2c(c(OC)c1OC)-c1c(cc3c(c1OC)OCO3)C[C@H](C)[C@H](C)C2 | MTT | >100 µM
COc1cc(/C=C/C(=O)N2CCC=CC2=O)cc(OC)c1OC | luminescence | 2.6 µM
COc1ccc(C(=O)O)c(O)c1 | MTT / absorbance | >100 µM
Nc1ccn([C@H]2CO[C@@H](CO)S2)c(=O)n1 | - | 450 µM
CC(=O)c1c(O)c(C)c(O)c(Cc2c(O)c3c(c(C(=O)/C=C/c4ccccc4)c2O)OC(C)(C)C=C3)c1O | ATP / luminescence | 4.149 µM
Nc1nc(=O)n([C@@H]2CO[C@H](CO)S2)cc1F | - | >500 µM
CC(C)C1=C[C@H](c2ccccc2)CC[C@H]1O | - | >1000 µM
Cc1cn([C@H]2C[C@H](N=[N+]=[N-])[C@@H](CO)O2)c(=O)[nH]c1=O | - | >25 µM
NC(=O)c1cc2c(-c3ccc4ccccc4c3)cncc2s1 | MTT | 20.5 µM
COc1c(-c2coc3cc4c(cc3c2=O)CC(O)C(C)(C)O4)ccc2c1C=CC(C)(C)O2 | luminescence | >100 µM
Cc1cn([C@H]2C[C@H](N=[N+]=[N-])[C@@H](CO)O2)c(=O)[nH]c1=O | - | 1721 µM
Cc1cc(=O)c2ccc(N=C=S)cc2o1 | MTT | 8.88 µM
CC(=O)O[C@H]1CC[C@@]2(C)C(CC[C@@]3(C)C4CC[C@@]5(C)CCC(C)(C)C[C@H]5C4=CCC32)C1(C)C | MTT / absorbance | >100 µM
COc1cc([C@@H]2c3cc4c(cc3[C@H](O)[C@H]3COC(=O)[C@@H]23)OCO4)cc(OC)c1OC | luminescence | 0.7 µM
COc1ccc(C=O)c(O)c1 | MTT / absorbance | >100 µM
O=C1C=C2C(=CCOC2O)O1 | luminescence | 1.1 µM
CC(C)=CCOc1c2occc2cc2ccc(=O)oc12 | - | >50 µM

A second listing of 2 rows from above:

structure | read by | result
COc1ccc(C(=O)O)c(O)c1 | MTT / absorbance | >100 µM
CC(C)=CCOc1c2occc2cc2ccc(=O)oc12 | - | >50 µM